From the supplement of paper PMC12637763
Residue numbers refer to the chain shown, from its start. Some of the results follow. Env chains of viruses from a treatment-interruption trial, translated from the printed DNA. IC50 / IC80 of two broadly neutralizing antibodies; lower = more sensitive virus; >50 µg/ml means not reached and <0.001 µg/ml is below the lowest dose. No active / inactive call.

B1: HIV-1 Env, rebound clone, placebo arm (protein)
chain: MRVKGIRKNCQRLWRWGTMLLGLLMICSATEKLWVTVYYGVPVWKEANTTLFCASNAKAYDTEAHNVWATHACVPTDPNPQELDLKNVTENFNMWKNNMVEQMHEDIISLWDQSLKPCVKLTPLCVTLNCTDEVNLRVNSSNSNSSINSNSSISNSSIEEKGEIKNCSFNITTSIRDKVTKEYALFYRLDVVSIKDDNPNNTSYRLINCNTSVITQACPKVSFEPIPIHYCAPAGFAILKCKDKEFNGSGPCQNVSTVQCTHGIKPVVSTQLLLNGSLAEGEVVIRSENFSDNAKTIIVQLSRPVVINCTRPNNNTRKSIHIAPGRTFYATGDIIGDIRQAHCNISKRDWNKTLEEVKGKLEKQYNKTIFFNQSSGGDPEIVMHTFNCAGEFFYCNTTNLFNNNITINATDTNATDTNATITLPCKIKQIINLWQEVGKAMYAPPIKGQIRCLSNITGLLLTRDGGINENGTNDTFRPGGGDMRDNWRSELYRYKVVKIEPLGIAPTKAKRRVVQREKRAVGIGAMFLGILGAAGSTMGAASITLTVQARLLLSGIVQQQNNLLRAIEAQQHLLQLTVWGIKQLQARVLAVERYLKDQQLLGIWGCSGKLICTTSVPWNSSWSNRSLDYIWNNMTWMQWEREIDNYTGRIYTLIEEAQHQQEENELELLKLDEWSNLWNWFDILKWLWYIKIFIMIVGGLIGLRIVFAVISIVNRVRKGYSPLSFQTHFPAPRGPDRPGGIEEEGGDRDRDRSTRLVDGFLALVWDDLRSLILFLYHHLRDLLLIITRIVGLLGRRGWEILKYWWNLLQYWSRELKLSAISLYNATAIAVAEGTDRVIEVVQRIFRGVLHVPRRIRQGLERILV
B2: HIV-1 Env, rebound clone, placebo arm (protein)
chain: MKVKGIRKNYQHLWRWGTMLLGMLMICSAADKLWVTVYYGVPVWKDATTTLFCASDAKAYDTEVHNVWATHACVPTDPDPQEVVLNVTENFNMWKNDMVGQMHEDIISLWDQSLKPCVKLTPLCVTLHCTNATSKNTTGAKNTTSTTNTTGGIEGKIKQEMKNCSFNVTTDIKDKMQRQYALFYKLDIVPIDNNDSYRLISCNTSVITQACPKVSFEPIPIHYCAPAGFAILKCNDKKFNGKGTCNNVSTVQCTHGIRPVVSTQLLLNGSLAEEDVVIRSDNFSDNAKTIIVQLNETVKINCTRPGNNTRKSITMGPGRAFYGTEDIIGDIRKAHCNISREGWNNTLKRVAEKLREKFENRTIVFNHSSGGDPEIVMHSFNCGGEFFYCNTTPLFGSTWNSTWNGNDTTESNSSTITLQCRIKQIINMWQEVGKAMYAPPIKGNIICSSNITGLLLTRDGGKTNETNTTTEIFRPGGGDMRNNWRSELYKYKVVQIEPLGVAPTKAKRRVVQREKRAVTLGAMFLGFLGAAGSTMGAASMMLTVQARQLLSGIVQQQNNLLRAIEAQQHLLQLTVWGIKQLQARVLAVERYLKDQQLLGIWGCSGKLICPTAVPWNASWSNKSLDIIWNNMTWMQWEKEISNYTGLIYNLIEESQNQQEKNEQELLELDKWDSLWNWFSITKWLWYIKIFIMIVGGLIGLRIIFAVLSIVNRVRQGYSPLSLQTLLPAPRGPDRPEGIEEEGGERERDRSGRLVTGLLELIWEDLRSLCLFSYHRLRDLLLITARTVGLLGSRGWEILKYLWNLLQYWSQELKSSAISLFNATAITVAEGTDRVIEVVLRVFRAIRNIPRRIRQGFERALQ
B3: HIV-1 Env, rebound clone, placebo arm (protein)
chain: B2 chain with S679N
B4: HIV-1 Env, rebound clone, placebo arm (protein)
chain: B2 chain with T398A, M480I, N482D, K593R, N649S
B5: HIV-1 Env, rebound clone, placebo arm (protein)
chain: B2 chain with M480I, N482D, K593R, N649S
B6: HIV-1 Env, rebound clone, placebo arm (protein)
chain: B2 chain with M377V, M480I, N482D, K593R, N649S

Tests used:
antibody 10-1074 [1] = assay: neutralization IC50; higher = virus less sensitive to the antibody
Experimental: (§1)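 Pseudovirus bearing the Env chain mixed with antibody, from 50 µg/ml in fivefold dilutions, on TZM-bl reporter cells, in duplicate.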

antibody 3BNC117 [2] = assay: as above
Experimental: as §1

antibody 10-1074 [3] = assay: neutralization IC80; higher = virus less sensitive to the antibody
Experimental: as §1

antibody 3BNC117 [4] = assay: as above
Experimental: as §1

Binder | neutralization IC50 (antibody 10-1074 [1]) | neutralization IC50 (antibody 3BNC117 [2]) | neutralization IC80 (antibody 10-1074 [3]) | neutralization IC80 (antibody 3BNC117 [4])
B1 | 0.091 µg/mL | 0.081 µg/mL | 0.51 µg/mL | 0.285 µg/mL
B2 | 6.12 µg/mL | 0.172 µg/mL | > 50 µg/mL | 0.808 µg/mL
B3 | 4.64 µg/mL | 0.223 µg/mL | 29.3 µg/mL | 0.755 µg/mL
B4 | 4.27 µg/mL | 0.077 µg/mL | 39.4 µg/mL | 0.364 µg/mL
B5 | 3.45 µg/mL | 0.124 µg/mL | 31 µg/mL | 0.341 µg/mL
B6 | 3.46 µg/mL | 0.055 µg/mL | 27.7 µg/mL | 0.183 µg/mL
